A mixed list of measured activities; the numbers were collected in NIAID ChemDB.

Common to all: whole-cell or culture tests

Blank or dashed fields: not listed here.

structure | organism | read by | dose | measure | strain | result
CC[C@H]1OC(=O)[C@H](C)[C@@H](OC(=O)CCCCCc2ccccc2)[C@H](C)[C@@H](O[C@@H]2O[C@H](C)C[C@H](N(C)C)[C@H]2O)C(C)(O)C[C@@H](C)/C(=N\OCCCOc2ccccc2)[C@H](C)[C@@H](O)[C@]1(C)O | Mycobacterium avium intracellulare | - | - | MIC | 20066 (clarithromycin-susceptible) | 6.25 µg/mL
OB1OC(N2CCOCC2)c2ccccc21 | Mycobacterium luteum | turbidity | - | MBC | - | 125 µg/mL
CC[C@H]1OC(=O)[C@H](C)[C@@H](O[C@H]2C[C@@](C)(OC)[C@@H](OC(C)=O)[C@H](C)O2)[C@H](C)[C@@H](O[C@@H]2O[C@H](C)C[C@H](N(C)C)[C@H]2O)C(C)(O)C[C@@H](C)/C(=N\OCC2CCCCC2)[C@H](C)[C@@H](O)[C@]1(C)O | Mycobacterium avium intracellulare | - | - | MIC | 20066 (clarithromycin-susceptible) | 3.13 µg/mL
Fc1ccc2c(Nc3ccc(Oc4ccc(Cl)cc4)cc3)ncnc2c1 | Mycobacterium bovis BCG | luminescence | - | MIC50 | - | >50 µM
CC(=O)c1ccc(B(O)O)cc1 | Mycobacterium luteum | turbidity | - | MIC | - | 15.6 µg/mL
CC[C@H]1OC(=O)[C@H](C)[C@@H](OC2C[C@@](C)(OC)[C@@H](O)[C@H](C)O2)[C@H](C)[C@@H](O[C@@H]2O[C@H](C)C[C@H](N(C)C)[C@H]2O)C(C)(O)C[C@@H](C)/C(=N\OCCC2CCCCC2)[C@H](C)[C@@H](O)[C@]1(C)O | Mycobacterium avium complex | - | - | MIC | 20092 (clarithromycin-resistant) | >50 µg/mL
OB1OC(N2CCN(C3OB(O)c4ccccc43)CC2)c2ccccc21 | Mycobacterium luteum | turbidity | - | MIC | - | <0.9 µg/mL
CO[C@H]1/C=C/O[C@@]2(C)Oc3c(C)c(O)c4c(O)c(c5c(c4c3C2=O)NC2(CCN(CC(C)C)CC2)N=5)=NC(=O)/C(C)=C\C=C\[C@H](C)[C@H](O)[C@@H](C)[C@@H](O)[C@@H](C)[C@H](OC(C)=O)[C@@H]1C | Mycobacterium avium intracellulare | - | - | MIC | CIPT 140310034 | 0.05 µg/mL
CC(C)=CCC/C(C)=C/CNc1ncnc2cc(F)ccc12 | Mycobacterium bovis BCG | luminescence | - | MIC50 | - | >20 µM
CCOC(=O)C[C@H](NC(=O)Nc1ccc(Cl)cc1)C1O[C@@H]2OC(C)(C)O[C@@H]2[C@H]1OC | Mycobacterium aurum | - | - | MIC | - | >25 µg/mL
Fc1ccc(Oc2ccc(CNc3ncnc4ccsc34)cc2)cc1 | Mycobacterium bovis BCG | luminescence | - | MIC50 | - | >20 µM
OB1OCc2cc(F)ccc21 | Mycobacterium luteum | turbidity | - | MBC | - | 3.9 µg/mL
C=Cc1cn([C@H]2C[C@H](O)[C@@H](CO)O2)c(=O)[nH]c1=O | Mycobacterium avium | - | 50 µg/mL | inhibition | ATCC 25291 | 0%
CC1(C)S[C@@H]2[C@H](NC(=O)C(C(=O)O)c3ccccc3)C(=O)N2[C@H]1C(=O)O | Mycobacterium avium intracellulare | - | - | MIC | CIPT 140310034 | 25 µg/mL
Fc1ccc2c(Nc3ccc(N4CCCCC4)cc3)ncnc2c1 | Mycobacterium bovis BCG | luminescence | - | MIC50 | - | >50 µM
CCC(C)(C)NCCNC(C)C | Mycobacterium smegmatis | - | 250 µg/mL | inhibition | ATCC 607 | 0%
FC(F)(F)c1ccc(-c2ccc(CNc3ncnc4ccccc34)cc2)cc1 | Mycobacterium bovis BCG | luminescence | - | MIC50 | - | >20 µM
Clc1ccc2c(c1)nc1cc(Nc3ccccc3)c(=NC3CCCCC3)cc-1n2-c1ccccc1 | Mycobacterium fortuitum | - | - | MIC | 6841 ATCC | 10 µg/mL
CC[C@H]1OC(=O)[C@H](C)[C@@H](O[C@H]2C[C@@](C)(OC)[C@@H](O)[C@H](C)O2)[C@H](C)[C@@H](O[C@@H]2O[C@H](C)C[C@H](N(C)C)[C@H]2O)[C@](C)(O)C[C@@H](C)C(=O)[C@H](C)[C@@H](O)[C@]1(C)O | Mycobacterium fortuitum | - | - | MIC90 | 25 isolates | >8 µg/mL
CCCCCC(CC(=O)N1N=CCCC1C(=O)N[C@H]1COC(=O)C2CCC=NN2C(=O)[C@H](C)NC(=O)[C@@H](CC(C)C)NC1=O)C(=O)O | Mycobacterium aurum | - | - | MIC | SB66 | 12.5 µg/mL
C[C@H]1C[C@H](N)CN1c1cc2c(cc1F)c(=O)c(C(=O)O)cn2-c1ccc(F)cc1F | Mycobacterium fortuitum | - | - | MIC90 | 25 isolates | >8 µg/mL
Cc1ccc(Oc2ccc(Nc3ncnc4ccccc34)cc2)cc1 | Mycobacterium bovis BCG | luminescence | - | MIC50 | - | >20 µM
CC[C@H]1OC(=O)[C@H](C)[C@@H](O[C@H]2C[C@@](C)(OC)[C@@H](OC(C)=O)[C@H](C)O2)[C@H](C)[C@@H](O[C@@H]2O[C@H](C)C[C@H](N(C)C)[C@H]2OC(=O)NNC)C(C)(O)C[C@@H](C)/C(=N\OCCCC2CCCCC2)[C@H](C)[C@@H](O)[C@]1(C)O | Mycobacterium avium complex | - | - | MIC | 20039 (clarithromycin-susceptible) | 3.13 µg/mL
CC(C)NCCN(C)C(C)C | Mycobacterium smegmatis | - | 1000 µg/mL | inhibition | ATCC 607 | 0%
CC[C@H]1OC(=O)[C@H](C)[C@@H](O[C@H]2C[C@@](C)(OC)[C@@H](OC(C)=O)[C@H](C)O2)[C@H](C)[C@@H](O[C@@H]2O[C@H](C)C[C@H](N(C)C)[C@H]2O)C(C)(O)C[C@@H](C)/C(=N\OCCCc2ccccc2)[C@H](C)[C@@H](O)[C@]1(C)O | Mycobacterium avium intracellulare | - | - | MIC | 20066 (clarithromycin-susceptible) | 3.13 µg/mL
NCCS | Mycobacterium abscessus | broth dilution / visual reading | - | MIC100 | DSM44196 | 62.5–125 µg/mL
C[C@@H]1CN(c2c(F)c(N)c3c(=O)c(C(=O)O)cn(C4CC4)c3c2F)C[C@H](C)N1 | Mycobacterium phlei | broth dilution / visual reading | - | MIC | ATCC 11758 | 0.3 µg/mL
CCCCCCCCCCCCN1C(=O)N(c2ccc(Cl)cc2)C(=O)C[C@H]1C1OC2OC(C)(C)OC2[C@H]1OC | Mycobacterium aurum | - | - | MIC | - | >25 µg/mL
Fc1ccc2c(Nc3ccc(OC4CCN(c5ccc(C(F)(F)F)cc5)CC4)cc3)ncnc2c1 | Mycobacterium bovis BCG | luminescence | - | MIC50 | - | >10 µM
C[C@@H]1CN(c2c(F)c(N)c3c(=O)c(C(=O)O)cn(C4CC4)c3c2F)C[C@H](C)N1 | Mycobacterium fortuitum | - | - | MBC | ATCC 6841 | 0.5 µg/mL
NCC[C@H](O)C(=O)N[C@@H]1C[C@H](N)[C@@H](O[C@H]2O[C@H](CN)[C@@H](O)[C@H](O)[C@H]2O)[C@H](O)[C@H]1O[C@H]1O[C@H](CO)[C@@H](O)[C@H](N)[C@H]1O | Mycobacterium bolletii | broth dilution | - | MIC90 | - | 32 µg/mL
CC1(C)OC2OC([C@@H]3CC(=O)N(Cc4ccccc4)C(=O)N3C3CC3)[C@H](Oc3ccccc3)C2O1 | Mycobacterium aurum | - | - | MIC | - | >25 µg/mL
NC[C@H]1O[C@H](O[C@H]2[C@H](O)[C@@H](O[C@H]3O[C@H](CO)[C@@H](O)[C@H](N)[C@H]3O)[C@H](N)C[C@@H]2N)[C@H](O)[C@@H](O)[C@@H]1O | Mycobacterium avium intracellulare | - | - | MIC | CIPT 140310054 | 10 µg/mL
CC[C@H]1OC(=O)[C@H](C)[C@@H](O[C@H]2C[C@@](C)(OC)[C@@H](OC(C)=O)[C@H](C)O2)[C@H](C)[C@@H](O[C@@H]2O[C@H](C)C[C@H](N(C)C)[C@H]2O)C(C)(O)C[C@@H](C)/C(=N\OCCCC2CCCCC2)[C@H](C)[C@@H](O)[C@]1(C)O | Mycobacterium avium intracellulare | - | - | MIC | 20066 (clarithromycin-susceptible) | 1.56 µg/mL
FC(F)(F)Oc1ccc(CCNc2nc(C3CC3)nc3ccccc23)cc1 | Mycobacterium bovis BCG | luminescence | - | MIC50 | - | 4.7 µM
OB1OC(N2CCCCC2)c2ccccc21 | Mycobacterium luteum | turbidity | - | MBC | - | 15.6 µg/mL
CC(C)(C)c1ccc(CCNc2ncnc3ccoc23)cc1 | Mycobacterium bovis BCG | luminescence | - | MIC50 | - | >20 µM
CCC(CC)NCCNC(CC)CC | Mycobacterium smegmatis | - | 250 µg/mL | inhibition | ATCC 607 | 0%
FC(F)(F)c1ccc(Oc2ccc(Nc3ncnc4[nH]ccc34)cc2)cc1 | Mycobacterium bovis BCG | luminescence | - | MIC50 | - | 1.68 µM
CC[C@H]1OC(=O)[C@H](C)[C@@H](OC(=O)CC2CCCCC2)[C@H](C)[C@@H](O[C@@H]2O[C@H](C)C[C@H](N(C)C)[C@H]2O)C(C)(O)C[C@@H](C)/C(=N\OCCCOc2ccccc2)[C@H](C)[C@@H](O)[C@]1(C)O | Mycobacterium avium complex | - | - | MIC | 20096 (clarithromycin-resistant) | 6.25 µg/mL
FC(F)(F)c1ccc(Oc2ccc(Nc3ncnc4cccnc34)cc2)cc1 | Mycobacterium bovis BCG | luminescence | - | MIC50 | - | >10 µM
C1CCC(NCCNC2CCCC2)C1 | Mycobacterium smegmatis | - | 250 µg/mL | inhibition | ATCC 607 | 100%
CO[C@H]1O[C@@H](n2ccc(=O)[nH]c2=O)C[C@@H]1N=[N+]=[N-] | Mycobacterium avium | - | 50 µg/mL | inhibition | ATCC 25291 | 0%
Cc1onc(-c2ccccc2Cl)c1C(=O)N[C@@H]1C(=O)N2[C@@H]1SC(C)(C)[C@@H]2C(=O)O | Mycobacterium avium intracellulare | - | - | MIC | CIPT 140310030 | 75 µg/mL
c1ccc(-c2cc3cc(Nc4ncnc5ccccc45)ccc3o2)cc1 | Mycobacterium bovis BCG | luminescence | - | MIC50 | - | >20 µM
O=c1ccn([C@H]2C[C@H](F)[C@@H](CO)O2)c(=O)[nH]1 | Mycobacterium avium | - | 50 µg/mL | inhibition | ATCC 25291 | 0%
CN(C)c1ccc(CNc2ncnc3ccccc23)cc1 | Mycobacterium bovis BCG | luminescence | - | MIC50 | - | >20 µM
CCCC(C)NCCNC(C)CCC | Mycobacterium smegmatis | - | 250 µg/mL | inhibition | ATCC 607 | 0%
CC[C@H]1OC(=O)[C@H](C)[C@@H](OC2C[C@@](C)(OC)[C@@H](O)[C@H](C)O2)[C@H](C)[C@@H](O[C@@H]2O[C@H](C)C[C@H](N(C)C)[C@H]2O)C(C)(O)C[C@@H](C)/C(=N\OCC2CCCCC2)[C@H](C)[C@@H](O)[C@]1(C)O | Mycobacterium avium complex | - | - | MIC | 20096 (clarithromycin-resistant) | >50 µg/mL
Fc1ccc2c(NCc3ccc(Oc4cccc(C(F)(F)F)c4)cc3)ncnc2c1 | Mycobacterium bovis BCG | luminescence | - | MIC50 | - | >20 µM
C[C@H]1COc2c(N3CCN(C)CC3)c(F)cc3c(=O)c(C(=O)O)cn1c23 | Mycobacterium fortuitum | - | - | MIC90 | 25 isolates | 4 µg/mL
Cc1nc(Nc2ccc(Oc3ccc(C(F)(F)F)cc3)cc2)c2ccc(F)cc2n1 | Mycobacterium bovis BCG | luminescence | - | MIC50 | - | >20 µM
CCCCCCCC/C=C\CCCCCCCCN(C(=O)NCc1ccccc1)[C@@H](CC(=O)OCC)C1O[C@@H]2OC(C)(C)O[C@@H]2[C@H]1OC | Mycobacterium aurum | - | - | MIC | - | >25 µg/mL
CC[C@H]1OC(=O)[C@H](C)[C@@H](OC2C[C@@](C)(OC)[C@@H](OC(=O)C(C)C)[C@H](C)O2)[C@H](C)[C@@H](O[C@@H]2O[C@H](C)C[C@H](N(C)C)[C@H]2O)C(C)(O)C[C@@H](C)/C(=N\OCCCOc2ccccc2)[C@H](C)[C@@H](O)[C@]1(C)O | Mycobacterium avium complex | - | - | MIC | 20092 (clarithromycin-resistant) | 1.56 µg/mL
Cc1cn([C@H]2C[C@H](N=[N+]=[N-])[C@@H](CO)O2)c(=O)[nH]c1=O | Mycobacterium avium | - | 50 µg/mL | inhibition | ATCC 25291 | 0%
CO[C@H]1/C=C/O[C@@]2(C)Oc3c(C)c(O)c4c(O)c(c5c(c4c3C2=O)NC2(CCN(CC(C)C)CC2)N=5)=NC(=O)/C(C)=C\C=C\[C@H](C)[C@H](O)[C@@H](C)[C@@H](O)[C@@H](C)[C@H](OC(C)=O)[C@@H]1C | Mycobacterium avium intracellulare | - | - | MIC | 109 | 0.5 µg/mL
COc1ccc2c(NCCc3ccc(OC(F)(F)F)cc3)ncnc2c1 | Mycobacterium bovis BCG | luminescence | - | MIC50 | - | >20 µM
CC(=O)OC[C@H]1O[C@@H](n2cc(/C=C/I)c(=O)[nH]c2=O)C[C@@H]1OC(C)=O | Mycobacterium avium | - | 50 µg/mL | inhibition | ATCC 25291 | 0%

Again, the opening 3 rows:

{"structure": "CC[C@H]1OC(=O)[C@H](C)[C@@H](OC(=O)CCCCCc2ccccc2)[C@H](C)[C@@H](O[C@@H]2O[C@H](C)C[C@H](N(C)C)[C@H]2O)C(C)(O)C[C@@H](C)/C(=N\\OCCCOc2ccccc2)[C@H](C)[C@@H](O)[C@]1(C)O", "organism": "Mycobacterium avium intracellulare", "measure": "MIC", "strain": "20066 (clarithromycin-susceptible)", "result": "6.25 µg/mL"}
{"structure": "OB1OC(N2CCOCC2)c2ccccc21", "organism": "Mycobacterium luteum", "read by": "turbidity", "measure": "MBC", "result": "125 µg/mL"}
{"structure": "CC[C@H]1OC(=O)[C@H](C)[C@@H](O[C@H]2C[C@@](C)(OC)[C@@H](OC(C)=O)[C@H](C)O2)[C@H](C)[C@@H](O[C@@H]2O[C@H](C)C[C@H](N(C)C)[C@H]2O)C(C)(O)C[C@@H](C)/C(=N\\OCC2CCCCC2)[C@H](C)[C@@H](O)[C@]1(C)O", "organism": "Mycobacterium avium intracellulare", "measure": "MIC", "strain": "20066 (clarithromycin-susceptible)", "result": "3.13 µg/mL"}

Percent inhibition refers to the dose given; in toxicity tests it is the harm to the cells. Rows are shuffled and stem from different studies. MIC50, MIC90 and the like: level of inhibition, or share of isolates inhibited. a–b is a range or a potency band.